# From PubChem BioAssay AID588689 (Southern Research Specialized Biocontainment Screening …, 2011)
# The chains behind the UniProt entries cited, without tags or fusion partners.
# UniProt P29991, whole entry: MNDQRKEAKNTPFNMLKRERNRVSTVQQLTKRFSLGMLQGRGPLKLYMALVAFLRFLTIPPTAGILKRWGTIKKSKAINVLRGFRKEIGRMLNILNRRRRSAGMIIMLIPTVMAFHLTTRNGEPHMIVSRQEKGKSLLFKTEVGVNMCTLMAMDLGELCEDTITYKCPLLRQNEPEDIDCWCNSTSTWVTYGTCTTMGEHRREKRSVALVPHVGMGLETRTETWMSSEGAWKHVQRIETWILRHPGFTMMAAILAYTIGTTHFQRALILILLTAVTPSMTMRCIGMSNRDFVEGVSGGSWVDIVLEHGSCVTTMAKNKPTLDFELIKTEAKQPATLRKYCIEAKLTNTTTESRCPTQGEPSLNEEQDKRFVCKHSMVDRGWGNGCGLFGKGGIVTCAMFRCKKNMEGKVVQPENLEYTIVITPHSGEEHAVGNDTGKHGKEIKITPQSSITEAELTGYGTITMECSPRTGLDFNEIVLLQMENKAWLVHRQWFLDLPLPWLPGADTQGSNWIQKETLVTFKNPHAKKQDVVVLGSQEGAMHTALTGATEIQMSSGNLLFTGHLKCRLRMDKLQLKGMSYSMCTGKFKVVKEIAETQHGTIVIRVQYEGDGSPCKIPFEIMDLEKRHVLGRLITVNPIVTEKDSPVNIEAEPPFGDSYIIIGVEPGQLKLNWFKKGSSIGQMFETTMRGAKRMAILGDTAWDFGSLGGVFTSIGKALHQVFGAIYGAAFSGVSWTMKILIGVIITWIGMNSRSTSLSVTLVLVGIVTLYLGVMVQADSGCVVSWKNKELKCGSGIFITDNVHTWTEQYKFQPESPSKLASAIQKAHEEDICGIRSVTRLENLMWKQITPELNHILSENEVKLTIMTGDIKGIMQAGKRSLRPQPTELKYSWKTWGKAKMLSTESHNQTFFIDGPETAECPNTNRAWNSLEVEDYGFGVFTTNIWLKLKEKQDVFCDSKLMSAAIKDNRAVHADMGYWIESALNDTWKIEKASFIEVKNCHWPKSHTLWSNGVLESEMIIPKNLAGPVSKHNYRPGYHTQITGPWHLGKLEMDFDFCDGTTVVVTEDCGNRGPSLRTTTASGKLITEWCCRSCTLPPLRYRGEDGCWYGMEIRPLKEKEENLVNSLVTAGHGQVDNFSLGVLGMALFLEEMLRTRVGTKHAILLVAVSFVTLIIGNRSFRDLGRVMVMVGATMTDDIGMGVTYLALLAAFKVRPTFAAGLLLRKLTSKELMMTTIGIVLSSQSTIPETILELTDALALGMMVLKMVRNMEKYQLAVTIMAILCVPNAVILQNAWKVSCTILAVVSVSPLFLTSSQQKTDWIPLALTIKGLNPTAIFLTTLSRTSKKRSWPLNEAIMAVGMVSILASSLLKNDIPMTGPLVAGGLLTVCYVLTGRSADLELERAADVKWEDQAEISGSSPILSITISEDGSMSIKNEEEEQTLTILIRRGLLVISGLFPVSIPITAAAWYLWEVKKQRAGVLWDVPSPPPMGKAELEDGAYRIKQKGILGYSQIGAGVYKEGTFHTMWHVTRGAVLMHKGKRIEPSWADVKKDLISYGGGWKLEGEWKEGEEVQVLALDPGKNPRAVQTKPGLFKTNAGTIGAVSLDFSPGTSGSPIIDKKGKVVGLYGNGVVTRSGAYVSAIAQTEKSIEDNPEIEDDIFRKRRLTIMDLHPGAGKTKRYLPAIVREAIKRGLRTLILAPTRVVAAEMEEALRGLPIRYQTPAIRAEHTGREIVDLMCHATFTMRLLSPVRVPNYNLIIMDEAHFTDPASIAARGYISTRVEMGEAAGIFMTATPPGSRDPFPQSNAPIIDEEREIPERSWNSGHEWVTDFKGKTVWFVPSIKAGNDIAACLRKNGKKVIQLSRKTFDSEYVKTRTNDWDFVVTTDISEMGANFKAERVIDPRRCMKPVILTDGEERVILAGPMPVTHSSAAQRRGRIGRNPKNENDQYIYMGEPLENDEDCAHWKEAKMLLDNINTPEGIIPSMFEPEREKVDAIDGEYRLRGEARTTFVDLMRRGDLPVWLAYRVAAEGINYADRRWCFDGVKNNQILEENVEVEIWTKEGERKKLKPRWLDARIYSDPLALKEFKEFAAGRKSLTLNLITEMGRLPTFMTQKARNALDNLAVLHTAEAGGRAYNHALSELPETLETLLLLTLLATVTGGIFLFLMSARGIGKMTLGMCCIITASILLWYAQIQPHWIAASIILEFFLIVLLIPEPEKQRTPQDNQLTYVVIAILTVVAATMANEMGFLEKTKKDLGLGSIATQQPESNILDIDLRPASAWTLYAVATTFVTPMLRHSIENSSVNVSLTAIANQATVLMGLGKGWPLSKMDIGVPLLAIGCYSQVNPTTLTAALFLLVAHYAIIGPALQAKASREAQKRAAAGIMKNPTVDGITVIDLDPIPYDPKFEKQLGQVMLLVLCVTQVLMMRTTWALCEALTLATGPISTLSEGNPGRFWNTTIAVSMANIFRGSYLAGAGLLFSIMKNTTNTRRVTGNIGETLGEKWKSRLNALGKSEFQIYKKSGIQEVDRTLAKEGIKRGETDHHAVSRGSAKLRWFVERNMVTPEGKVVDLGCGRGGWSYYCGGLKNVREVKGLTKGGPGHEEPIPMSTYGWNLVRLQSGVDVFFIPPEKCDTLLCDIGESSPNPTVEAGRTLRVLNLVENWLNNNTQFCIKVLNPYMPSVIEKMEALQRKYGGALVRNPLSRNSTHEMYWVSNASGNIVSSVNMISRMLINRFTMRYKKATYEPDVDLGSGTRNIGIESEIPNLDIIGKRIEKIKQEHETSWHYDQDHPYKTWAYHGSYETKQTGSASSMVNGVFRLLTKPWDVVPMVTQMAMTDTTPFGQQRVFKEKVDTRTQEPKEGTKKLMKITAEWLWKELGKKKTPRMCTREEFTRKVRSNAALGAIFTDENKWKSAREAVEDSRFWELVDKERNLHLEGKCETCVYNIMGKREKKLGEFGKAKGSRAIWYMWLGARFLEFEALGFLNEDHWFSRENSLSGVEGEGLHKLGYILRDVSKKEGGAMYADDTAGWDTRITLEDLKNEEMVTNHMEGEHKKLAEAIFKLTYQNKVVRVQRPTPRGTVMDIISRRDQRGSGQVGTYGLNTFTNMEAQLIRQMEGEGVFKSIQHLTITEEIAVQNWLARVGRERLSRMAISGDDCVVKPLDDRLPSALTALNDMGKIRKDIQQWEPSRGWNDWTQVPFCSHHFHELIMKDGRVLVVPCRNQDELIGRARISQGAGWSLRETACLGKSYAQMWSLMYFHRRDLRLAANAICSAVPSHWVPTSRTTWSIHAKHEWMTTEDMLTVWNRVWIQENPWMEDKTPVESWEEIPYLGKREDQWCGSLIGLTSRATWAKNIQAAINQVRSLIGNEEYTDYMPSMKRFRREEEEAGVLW
# Only a part is listed here, and it is no random draw. Results with a measured potency or affinity are listed apart. Some salts or complexes appear as unconnected parts, following the source record. Calls of active or inactive are those of the source. Cut-off read from the data, not from the text of the source: inconclusive = inhibition above about 29% without an active follow-up result; inactive = below that.
# Target: Genome polyprotein (Dengue virus type 2 (strain 16681-PDK53)) (UniProt P29991)
# Test: flavivirus cap methylation enzyme inhibition – biochemical, confirmation dose response, primary screen (AID 588689)
# Conditions: Dengue-2 NS5 methyltransferase capping enzyme assay, at 25 µM, stronger effect = higher value
row,Structure (SMILES),inhibition
1,CP(=O)(Nc1ccc(SC(F)(F)F)cc1)Oc1ccccc1 (centres undefined),inactive: -2.55%
2,CCCOc1ccc(NP(C)(=O)Oc2ccc(Cl)cc2)cc1 (centres undefined),inactive: 0%
3,COc1ccccc1OP(C)(=O)Nc1c(C)cccc1C (centres undefined),inactive: -1.61%
4,CN1CCCCC1COC(=O)C1(O)c2ccccc2CCc2ccccc21 (centres undefined),inactive: -3.63%
5,O=[N+]([O-])c1cc([N+](=O)[O-])c(Nc2nnnn2CCO)c([N+](=O)[O-])c1,inactive: 15.7%
6,CC1=C2N=C(C=C3N=C(C(C)=C4[N-][C@@](C)([C@@H]5N=C1[C@](C)(CCC(=O)NC[C@@H](C)OP(=O)([O-])O[C@H]1[C@@H](O)[C@@H](n6cnc7cc(C)c(C)cc76)O[C@@H]1CO)[C@H]5CC(N)=O)[C@@](C)(CC(N)=O)[C@@H]4CCC(N)=O)[C@@](C)(CC(N)=O)[C@@H]3CCC(N)=O)C(C)(C)[C@@H]2CCC(N)=O.[C-]#N.[Co+3],inactive: -1.49%
7,CCOC(=O)C(CC)C1=NC(C)(C)Cc2ccccc21.O=[N+]([O-])c1cc([N+](=O)[O-])c(O)c([N+](=O)[O-])c1 (centres undefined),inactive: -3.92%
8,Cc1nc2ccc3ccccc3c2s1.O=[N+]([O-])c1cc([N+](=O)[O-])c(O)c([N+](=O)[O-])c1,inactive: -2.93%
9,O=[N+]([O-])c1cc([N+](=O)[O-])c(-c2cnn(-c3ccccc3)c2)c([N+](=O)[O-])c1,inactive: 0.78%
10,O=[N+]([O-])c1cc([N+](=O)[O-])c(-n2nnc3ccccc32)c([N+](=O)[O-])c1,inactive: -5.74%
11,CP(=O)(Nc1cccc(Br)c1)Oc1ccccc1 (centres undefined),inactive: -7.01%
12,Cc1cc(C)cc(OP(C)(=O)Nc2ccccn2)c1 (centres undefined),inactive: -1.39%
13,Cc1ccc(C)c(NP(C)(=O)Oc2ccccc2)c1 (centres undefined),inactive: -7.23%
14,Cc1cc(C)cc(OP(C)(=O)Nc2ccc(C)cc2C)c1 (centres undefined),inactive: -2.77%
15,CCOC(=O)c1ccc(NP(C)(=O)Oc2cc(C)cc(C)c2)cc1 (centres undefined),inactive: -3.19%
16,COc1ccccc1OP(C)(=O)Nc1cccc(Br)c1 (centres undefined),inactive: -7.95%
17,CC1=NCCc2c1[nH]c1ccccc21.O=[N+]([O-])c1cc([N+](=O)[O-])c(O)c([N+](=O)[O-])c1,inactive: -8.67%
18,O=C(O)c1cccc(Nc2c([N+](=O)[O-])cc([N+](=O)[O-])cc2[N+](=O)[O-])c1,inactive: 31.2%
19,COc1ccccc1OP(C)(=O)Nc1cc(Cl)ccc1C (centres undefined),inactive: -2.95%
20,COc1ccc(OP(C)(=O)Nc2cccc(F)c2)cc1 (centres undefined),inactive: -8.06%
21,Cc1cc(C)cc(OP(C)(N)=O)c1 (centres undefined),inactive: -3.7%
22,CCOC(=O)c1ccc(NP(C)(=O)Oc2ccccc2)cc1 (centres undefined),inactive: 1.28%
23,COc1ccccc1OP(C)(=O)Nc1ccc(C)cc1 (centres undefined),inactive: 5.47%

row,Structure (SMILES),inhibition
1,Cc1ccc(NP(C)(=O)Oc2ccccc2)c(C)c1 (centres undefined),inactive: -1.59%
2,CC(C)(C)c1ccc(OP(C)(=O)Nc2ccc(SC(F)(F)F)cc2)cc1 (centres undefined),inactive: -3.19%
3,Cc1cccc(C)c1OP(C)(N)=O (centres undefined),inactive: -4.38%
4,O=[N+]([O-])c1ccc2c(c1)C=Nc1ccccc1O2,inactive: 6.36%
5,O=[N+]([O-])c1cc([N+](=O)[O-])c(Nc2cccnc2)c([N+](=O)[O-])c1,inactive: -7.36%
6,CCN(CC)CCCOC(=O)C(O)(c1ccccc1)c1ccccc1,inactive: -18.6%
7,CP(=O)(Nc1ccccn1)Oc1ccc(Cl)cc1 (centres undefined),inactive: -0.7%
8,CCOP(C)(=S)SCC(=O)NC(C)C(=O)O (centres undefined),inactive: 0.69%
9,CCOC(=O)c1ccc(NP(C)(=O)Oc2ccc(OC)cc2)cc1 (centres undefined),inactive: -4.6%
10,CCc1ccc(OP(C)(=O)N2CCN(c3ccc([N+](=O)[O-])cc3)CC2)cc1 (centres undefined),inactive: 2.33%
11,CP(=O)(NC(=O)Nc1ccccc1)Oc1ccccc1 (centres undefined),inactive: 0.68%
12,Cc1cc(C)cc(OP(C)(=O)Nc2ccc(SC(F)(F)F)cc2)c1 (centres undefined),inactive: -6.73%
13,Cc1cccc(C)c1OP(C)(=O)Nc1ccc(SC(F)(F)F)cc1 (centres undefined),inactive: -2.96%
14,Cc1ccc(Nc2c([N+](=O)[O-])cc([N+](=O)[O-])cc2[N+](=O)[O-])cc1,inactive: 23.6%
15,CP(=O)(Oc1ccccc1)OC(c1ccccc1)C(F)(F)F (centres undefined),inactive: -0.76%
16,COc1ccccc1OP(C)(=O)Nc1ccccc1 (centres undefined),inactive: 8.53%
17,CP(=O)(Nc1ccccc1Br)Oc1ccccc1 (centres undefined),inactive: 3.89%
18,CP(=S)(Nn1cnnc1)Oc1ccccc1 (centres undefined),inactive: -0.69%
19,CP(=O)(OC12CC3CC(CC(C3)C1)C2)OC12CC3CC(CC(C3)C1)C2,inactive: 2.45%
20,CCOC(=O)c1ccc(NP(C)(=O)Oc2ccc(Cl)cc2)cc1 (centres undefined),inactive: -3.21%
21,CN(C)C(=O)c1c([N+](=O)[O-])cc([N+](=O)[O-])cc1[N+](=O)[O-],inactive: -1.55%
22,CP(=O)(Nc1ccc(Cl)cc1)Oc1ccc(F)cc1 (centres undefined),inactive: 0%
23,CC(C)(C)c1ccc(OP(C)(=O)O)cc1,inactive: -5.72%

row,Structure (SMILES),inhibition
1,COc1ccccc1OP(C)(=O)Nc1ccccc1Br (centres undefined),inactive: -2.99%
2,CP(=O)(Oc1ccccc1)N1CCOC1=O (centres undefined),inactive: 0%
3,CCc1ccc(OP(C)(=O)Nc2cccnc2)cc1 (centres undefined),inactive: -4.44%
4,COc1ccccc1OP(C)(=O)Nc1c(C)n(C)n(-c2ccccc2)c1=O (centres undefined),inactive: -3.97%
5,O=C(OCCCN1CCCC1)C(O)(c1ccccc1)C1CCCCC1 (centres undefined),inactive: 0%
6,CCN(CC)CC(O)COC(=O)C(O)(c1ccccc1)C1CCCCC1 (centres undefined),inactive: -2.46%
7,COc1ccc(OP(C)(=O)Nc2ccc(Br)cc2)cc1 (centres undefined),inactive: -2.58%
8,CCc1ccc(OP(C)(=O)O)cc1,inactive: -0.69%
9,CP(=O)(Nc1ccccn1)Oc1ccccc1 (centres undefined),inactive: -8.84%
10,COc1ccccc1OP(C)(=O)Nc1ccc(C)cc1C (centres undefined),inactive: 1.57%
11,O=[N+]([O-])c1cc([N+](=O)[O-])c(Nc2ccccn2)c([N+](=O)[O-])c1,inactive: 5.43%
12,Cc1c(NP(C)(=O)Oc2ccc(C(C)C)cc2)c(=O)n(-c2ccccc2)n1C (centres undefined),inactive: 0%
13,CN(C)CCOC(=O)C(O)(c1ccccc1)C1CCCC1 (centres undefined),inactive: -2.82%
14,COc1ccc(OP(C)(=O)Nc2ccccn2)cc1 (centres undefined),inactive: 4.07%
15,COc1ccccc1OP(C)(=O)Nc1ccc(Br)cc1 (centres undefined),inactive: -3.95%
16,CP(=O)(OCCOc1ccccc1)OCCOc1ccccc1,inactive: -0.79%
17,CCCCCCCCCCCCCCCC1C[N+](C)(C)CCOP(C)(=O)O1 (centres undefined),inactive: 0.77%
18,CP(=O)(Nc1ccc(Cl)cc1Cl)Oc1ccccc1 (centres undefined),inactive: -1.52%
19,COc1ccc(OP(C)(=O)Nc2ccccc2Br)cc1 (centres undefined),inactive: 4.8%
20,COc1ccccc1OP(C)(=O)Nc1ccc(C)c(C)c1 (centres undefined),inactive: -4.29%
21,O=C1C(O)=C([N+](=O)[O-])C(=O)C(O)=C1[N+](=O)[O-],inactive: 6.37%
22,CCCCCOc1ccc(NP(C)(=O)Oc2ccc(Cl)cc2Cl)cc1 (centres undefined),inactive: -9.19%
23,CP(=O)(Nc1ccccc1)Oc1ccc(F)cc1 (centres undefined),inactive: 0.69%

row,Structure (SMILES),inhibition
1,CCN(CC)CCCOC(=O)C(O)(c1ccccc1)C1CCCCC1 (centres undefined),inactive: -8.18%
2,Cc1c([N+](=O)[O-])cc([N+](=O)[O-])c(Br)c1[N+](=O)[O-],inactive: 11.2%
3,COc1ccc(OP(C)(=O)Nc2ccc(SC(F)(F)F)cc2)cc1 (centres undefined),inactive: -1.59%
4,CCOC(=O)c1ccc(NP(C)(=O)Oc2ccc(F)cc2)cc1 (centres undefined),inactive: -4.55%
5,COc1ccc2c(c1O)-c1c(O)c(OC)cc3c1[C@H](C2)[N+](C)(C)CC3.O=[N+]([O-])c1cc([N+](=O)[O-])c([O-])c([N+](=O)[O-])c1[O-],inactive: 5.72%
6,O=C(OCCN1CCN(CCOCc2ccccc2)CC1)C(O)(c1ccccc1)c1ccccc1,inactive: -3.25%
7,O=C(OC1CN2CCC1CC2)c1ccc([N+](=O)[O-])cc1 (centres undefined),inactive: 16.2%
8,CC(C)c1ccc(OP(C)(=O)Nc2ccc(SC(F)(F)F)cc2)cc1 (centres undefined),inactive: -5.81%
9,CP(=O)(Nc1ccccc1F)Oc1ccccc1 (centres undefined),inactive: -3.09%
10,O=[N+]([O-])c1cc([N+](=O)[O-])c(Nc2ccc(Cl)cc2)c([N+](=O)[O-])c1,inactive: 35.6%
11,Cc1ccccc1NP(C)(=O)Nc1ccccc1C,inactive: -4.02%
12,CP(=O)(Nc1ccc2c(c1)OCCO2)Oc1ccccc1 (centres undefined),inactive: -8.92%
13,CCOP(C)(=S)SCC(=O)NC(C)(CC)C(=O)O (centres undefined),inactive: -13.9%
14,CP(=O)(Nc1ccc(SC(F)(F)F)cc1)Oc1ccc(F)cc1 (centres undefined),inactive: -6.18%
15,Cc1c(C(c2ccc3c(c2)OCO3)c2c(C)n(C)n(-c3ccccc3)c2=O)c(=O)n(-c2ccccc2)n1C.O=[N+]([O-])c1cc([N+](=O)[O-])c(O)c([N+](=O)[O-])c1,inactive: -0.88%
16,O=[N+]([O-])c1cc([N+](=O)[O-])c(NCC2CCS(=O)(=O)C2)c([N+](=O)[O-])c1 (centres undefined),inactive: 3.57%
17,Cc1cc(-c2cccc3ccccc23)c(C)cn1.O=[N+]([O-])c1cc([N+](=O)[O-])c(O)c([N+](=O)[O-])c1,inactive: -7.11%
18,O=[N+]([O-])c1ccc(OP2(=O)COCCO2)cc1 (centres undefined),inactive: -12.3%
19,CN(C)CCOC(=O)C(O)(c1ccccc1)C1CCCCC1 (centres undefined),inactive: 0.55%
20,COc1ccc(OP(C)(=O)Nc2cccc(Br)c2)cc1 (centres undefined),inactive: 2.42%
